A mixed list of measured activities; the numbers were collected in NIAID ChemDB.

Shared fields: growth or infection tests; agent: Adenovirus; read-out: EC50

ECn is the concentration giving n% inhibition of infection, replication or growth. Neighbouring rows are from separate reports. Blank or dashed fields: not listed here.

SMILES,strain or isolate,cell line,read by,value
Nc1ccnc2c1ncn2[C@H]1C=C[C@@H](OCP(=O)(O)O)O1,WT 300 (TYPE 5),-,cytopathic effect,>32 µg/mL
NC(=S)c1cn([C@@H]2O[C@H](CO)[C@@H](O)[C@@H]2O)c2ncnc(N)c12,adenoid 75 (TYPE 5),HeLa,plaque count,1 µM
N#Cc1c(N2CCCC2)nsc1-c1ccccc1,TYPE 2,HEP-2,plaque count,>7 µg/mL
O=c1cc(-c2ccc(O)c(O)c2)oc2cc(O)cc(O)c12,TYPE 11,BCC-1/KMC,cytopathic effect,>25 µg/mL
COc1ccc(-c2cc(=O)c3c(O)cc(O)cc3o2)cc1,TYPE 2,VERO,-,>20 µg/mL
N#Cc1c(SCCO)nsc1-c1ccccc1,TYPE 2,HEP-2,plaque count,>5 µg/mL
COc1cc(C(=O)O)ccc1O,TYPE 11,BCC-1/KMC,cytopathic effect,>200 µg/mL
CCOP(=O)(O)CC(OCn1ccc(=O)[nH]c1=O)C(C)O,TYPE 2,HEP-2,cytopathic effect,>320 µg/mL
Nc1ncc2c(ncn2COC(CO)CO)n1,TYPE 2,HEL,cytopathic effect,0.57 µM
N#Cc1c(N2CCOCC2)nsc1-c1ccccc1,TYPE 2,HEP-2,plaque count,>1 µg/mL
N=C(N)c1cn([C@@H]2O[C@H](CO)[C@@H](O)[C@@H]2O)c2ncnc(N)c12,adenoid 75 (TYPE 5),HeLa,plaque count,>100 µM
O=c1c(O)c(-c2ccccc2)oc2cc(O)cc(O)c12,TYPE 2,VERO,-,>15 µg/mL
Nc1ccn(C[C@@H](CO)OCP(=O)(O)O)c(=O)n1,TYPE 2,HEL,cytopathic effect,2 µM
CCCSc1nsc(-c2ccccc2)c1C#N,TYPE 2,HEP-2,plaque count,>200 µg/mL
NC(=O)c1ncn([C@@H]2O[C@H](CO)[C@@H](O)[C@H]2O)n1,TYPE 2,HEL,-,>250 µM
O=c1[nH]cnc2c1ncn2CCOCP(=O)(O)O,3 TYPES,HEL,cytopathic effect,>125 µg/mL
N#Cc1c(SCCCCBr)nsc1-c1ccccc1,TYPE 2,HEP-2,plaque count,>25 µg/mL
Nc1ncnc2c1ncn2C[C@@H](CO)OCP(=O)(O)O,TYPE 2,HEL,cytopathic effect,0.2 µg/mL
N/C(=N/O)c1cn([C@@H]2O[C@H](CO)[C@@H](O)[C@@H]2O)c2ncnc(N)c12,adenoid 75 (TYPE 5),HeLa,plaque count,20 µM
Nc1ccn([C@@H]2C[C@@H](O)[C@H](CO)O2)c(=O)n1,TYPE 1,A549,-,>100 µM
Cc1cc(=O)c2c(O)c3c(O)cc(O)c4c5c(O)cc(O)c6c(O)c7c(=O)cc(C)c8c1c2c(c34)c(c65)c78,TYPE 2,HeLa,cytopathic effect,>100 µg/mL
Nc1ncc2ncn(CCOCP(=O)(O)O)c2n1,3 TYPES,HEL,cytopathic effect,>125 µg/mL
O=C(O)/C=C/c1ccc(O)cc1,TYPE 11,BCC-1/KMC,cytopathic effect,43.8 µg/mL
Nc1nc(N)c2ncn(CCOCP(=O)(O)O)c2n1,3 TYPES,HEL,cytopathic effect,>125 µg/mL
NC(=O)c1csc([C@@H]2O[C@H](CO)[C@@H](O)[C@H]2O)n1,Type 2/adenoid 6,HeLa,cytopathic effect,140 µg/mL
Nc1cc(OC[C@H](CO)OCP(=O)(O)O)nc(N)n1,TYPE 2,HEL,PCR,10 µM
N=C(N)c1cn([C@H]2C[C@H](O)[C@@H](CO)O2)c2ncnc(N)c12,adenoid 75 (TYPE 5),HeLa,plaque count,6 µM
O=c1[nH]c(=O)n([C@H]2C[C@H](O)[C@@H](CO)O2)cc1/C=C/Br,TYPE 1,VERO,plaque count,>100 µM
Nc1nc2c(ncn2CCC(CO)CO)c(=O)[nH]1,TYPE 2,HEL,cytopathic effect,≥500 µM
Nc1ccn(C[C@@H](CO)OCP(=O)(O)O)c(=O)n1,TAK (TYPE 41),-,cytopathic effect,3 µg/mL
Nc1ncnc2c1ncn2CCOCP(=O)(O)O,3 TYPES,HEL,cytopathic effect,>125 µg/mL
Nc1ccn([C@H]2CC[C@@H](CO)O2)c(=O)n1,TYPE 3,BCC-1/KMC,cytopathic effect,7.5 µg/mL
COc1cc(/C=C/C(=O)O)ccc1O,TYPE 8,BCC-1/KMC,cytopathic effect,52.5 µg/mL
Nc1ncnc2c1ncn2C[C@@H](CO)OCP(=O)(O)O,TYPE 2,HEL,PCR,0.63 µM
CCCSc1nsc(-c2ccccc2)c1C(N)=O,TYPE 2,HEP-2,plaque count,>300 µg/mL
Nc1nc2c(ncn2C[C@]2(CO)C[C@H]2CO)c(=O)[nH]1,TYPE 2,HEL,cytopathic effect,297 µM
Nc1ccn([C@@H]2C[C@@H](O)[C@H](CO)O2)c(=O)n1,TYPE 1,A549,-,>100 µM
Nc1ncnc2c1ncn2C[C@@H](CO)OCP(=O)(O)O,TRIM (TYPE 8),-,cytopathic effect,2 µg/mL
O=C(O)P(=O)(O)O,TYPE 2,HEL,cytopathic effect,>1000 µM
Cc1cn(COC(CP(=O)(O)O)C(O)CO)c(=O)[nH]c1=O,TYPE 2,HEP-2,cytopathic effect,>320 µg/mL
O=C(O)[C@H]1O[C@@H](Oc2cc3oc(-c4ccccc4)cc(=O)c3c(O)c2O)[C@H](O)[C@@H](O)[C@@H]1O,TYPE 3,BCC-1/KMC,cytopathic effect,>50 µg/mL

A second listing of 2 rows from above:

Nc1ccn([C@H]2CC[C@@H](CO)O2)c(=O)n1 ; strain or isolate: TYPE 3 ; cell line: BCC-1/KMC ; read by: cytopathic effect ; value: 7.5 µg/mL
O=c1cc(-c2ccc(O)c(O)c2)oc2cc(O)cc(O)c12 ; strain or isolate: TYPE 11 ; cell line: BCC-1/KMC ; read by: cytopathic effect ; value: >25 µg/mL